Measured values from several laboratories, pooled; numbers as filed in NIAID ChemDB.

Common to all: tests on isolated targets

Blank or dashed fields: not listed here.

smiles | endpoint | method | mutations | protein | dose | value
OC[C@H]1O[C@@H](n2c(I)nc3cc(Br)c(Br)cc32)[C@H](O)[C@@H]1O | IC50 |  |  | Protein kinase C |  | >30 µM
Cn1c2ccccc2c2c3c(c4c5ccccc5n(CCC#N)c4c21)CNC3=O | IC50 |  |  | cGMP-dependent kinase |  | 6.2 µM
C=CCN(C(=O)OCc1ccc([N+](=O)[O-])cc1)C1CCN(CC[C@](C)(CN(C)S(=O)(=O)c2ccccc2)c2ccccc2)CC1 | IC50 | radiometric | CCR5-E283A | CCR5 |  | 1 µM
NC(N)=NCCC[C@@H]1NC(=O)[C@H](CCCN=C(N)N)NC(=O)[C@@H](Cc2ccc(N)cc2)NC(=O)CNC(=O)[C@H](Cc2ccc3ccccc3c2)NC1=O | IC50 | radiometric |  | CXCR4 |  | 0.1 µM
CC(C)C(=O)N1C[C@H](CN2CCC(c3ccccc3)CC2)[C@@H](c2ccccc2)C1 | fold resistance | radiometric | CCR5-Y108A | CCR5 |  | 26.7
NCC[C@@H]1NC(=O)[C@H](CCCN=C(N)N)NC(=O)[C@@H](Cc2ccc(O)cc2)NC(=O)CNC(=O)[C@H](Cc2ccc3ccccc3c2)NC1=O | IC50 | radiometric |  | CXCR4 |  | 0.44 µM
CN(C[C@@H](CCN1CCC(O)(c2ccccc2)CC1)c1cccc(Cl)c1)S(=O)(=O)c1ccccc1 | IC50 | radioligand binding / binding |  | CCR5 |  | 0.1 µM
CN1CC[C@H](c2c(O)cc(O)c3c(=O)cc(-c4ccccc4F)oc23)[C@H](O)C1 | IC50 | kinase activity |  | Cyclin-dependent kinase 9 |  | 0.002 µM
CCN(C(=O)OCC(C)C)C1CCN(CCC(CN(C)S(=O)(=O)c2ccccc2)c2ccccc2)CC1 | IC50 | radioligand binding / binding |  | CCR5 |  | 0.02 µM
NC(N)=NCCNS(=O)(=O)c1cccc2cnccc12 | IC50 |  |  | Protein kinase C |  | >30 µM
Cc1cc(SC2=C(O)C[C@@](CCc3ccc(O)cc3)(C(C)C)OC2=O)c(C(C)(C)C)cc1CO | inhibition |  |  | Cytochrome P450 2C9 | 100 µM | 50%
CN1Cc2c(c3c4ccccc4n(C)c3c3c2c2ccccc2n3CCC#N)C1=O | IC50 |  |  | Protein kinase C |  | >30 µM
CN(C[C@@H](CCN1CCC2(CC1)NC(=O)c1ccccc12)c1cccc(Cl)c1)S(=O)(=O)c1ccccc1 | IC50 | radioligand binding / binding |  | CCR5 |  | 0.04 µM
CC1CNCCN1S(=O)(=O)c1cccc2cnccc12 | IC50 |  |  | Protein kinase C |  | 1 µM
CN(C[C@@H](CCN1CCC2(CC1)Cc1ccccc1C2=O)c1cccc(Cl)c1)S(=O)(=O)c1ccccc1 | IC50 | radioligand binding / binding |  | CCR5 |  | >1 µM
OC[C@H]1O[C@@H](n2cnc3c(Cl)c(Cl)c(Cl)cc32)[C@H](O)[C@@H]1O | IC50 |  |  | Protein kinase C |  | >30 µM
O=C(C1CCCCC1)N1C[C@H](CN2CCC(c3ccccc3)CC2)[C@@H](c2ccccc2)C1 | IC50 | radiometric | CCR5-Y251A | CCR5 |  | 0.28 µM
N#CCCn1c2ccc(O)cc2c2c3c(c4c5cc(O)ccc5[nH]c4c21)C(=O)NC3 | IC50 |  |  | cGMP-dependent kinase |  | 0.043 µM
NC(N)=NCCC[C@@H]1NC(=O)[C@H](CCCN=C(N)N)NC(=O)[C@@H](Cc2ccc(F)cc2)NC(=O)CNC(=O)[C@H](Cc2ccc3ccccc3c2)NC1=O | IC50 | radiometric |  | CXCR4 |  | 0.22 µM
O=C(O[C@@H]1Cc2c(O)cc(O)cc2O[C@@H]1c1ccc(O)c(O)c1)c1cc(O)c(O)c(O)c1 | IC50 | ELISA |  | CD4 |  | >200 µM
Cc1nc2cc(Cl)c(Cl)cc2n1[C@@H]1O[C@H](CO)[C@@H](O)[C@H]1O | IC50 |  |  | Protein kinase A |  | >30 µM
NC(N)=NCCC[C@@H]1NC(=O)CNC(=O)[C@H](Cc2ccc3ccccc3c2)NC(=O)[C@H](CCCN=C(N)N)NC(=O)[C@@H](Cc2ccc(F)cc2)NC1=O | IC50 | radiometric |  | CXCR4 |  | 0.035 µM
COC(=O)N(CC1CCCC1)C1CCN(CCC(CN(C)S(=O)(=O)c2ccccc2)c2ccccc2)CC1 | IC50 | radioligand binding / binding |  | CCR5 |  | 0.01 µM
C[C@@H]1NC(=O)[C@H](CCCN=C(N)N)NC(=O)[C@@H](Cc2ccc(O)cc2)NC(=O)CNC(=O)[C@H](Cc2ccc3ccccc3c2)NC1=O | IC50 | radiometric |  | CXCR4 |  | >1 µM
CCCN(C(=O)Cc1ccccc1)C1CCN(CCC(CN(C)S(=O)(=O)c2ccccc2)c2ccccc2)CC1 | IC50 | radioligand binding / binding |  | CCR5 |  | 0.003 µM

For reference, 2 entries again:

| smiles | endpoint | method | mutations | protein | dose | value |
|---|---|---|---|---|---|---|
| CC1CNCCN1S(=O)(=O)c1cccc2cnccc12 | IC50 |  |  | Protein kinase C |  | 1 µM |
| NC(N)=NCCNS(=O)(=O)c1cccc2cnccc12 | IC50 |  |  | Protein kinase C |  | >30 µM |

Rows are shuffled and stem from different studies. ICn: concentration for n% inhibition. Percent inhibition refers to the dose given; in toxicity tests it is the harm to the cells. Fold resistance has wild type as its base.